Anti-infective test results gathered from many reports (values: NIAID ChemDB through PubChem).

All rows: enzyme or target tests

Conditions beyond the fields shown may differ between rows.

compound | mutations | target | read by | conditions | endpoint | dose | value
CC(C)[C@H](NC(=O)[C@@H](NC(=O)C(Cc1ccccc1)CP(=O)(O)C(Cc1ccccc1)NC(=O)[C@@H](NC(=O)[C@@H](NC(=O)OC(C)(C)C)C(C)C)C(C)C)C(C)C)C(N)=O | - | Cathepsin D | - | pH 3.5 | Ki | - | 0.009 µM
CCO/N=C(\c1ccc(Br)cc1)C1CCN(C2(C)CCN(C(=O)c3c(C)cc[n+]([O-])c3C)CC2)CC1 | - | CCR3 | - | - | IC50 | - | >20 µM
C[C@@H]1C[C@H]2CC(=O)O[C@]3(C1)N1CCCC(=O)[C@]23CCC1 | - | Acetylcholinesterase | - | - | IC50 | - | 90.3 µM
O=C(O)c1cc(O)cc(O)c1N=Nc1ccc(/C=C/c2ccc(N=Nc3c(O)cc(O)cc3C(=O)O)cc2S(=O)(=O)O)c(S(=O)(=O)O)c1 | - | gp120 | - | - | inhibition | 0.8 µM | 100%
CNC(C)[C@H]1O[C@H](O[C@@H]2[C@@H](O)[C@H](O[C@@H]3OC[C@@](C)(O)[C@@H](NC)[C@@H]3O)[C@@H](NC(=O)[C@@H](N)CCCN=C(N)N)C[C@H]2NC(=O)[C@@H](N)CCCN=C(N)N)[C@H](NC(=O)[C@@H](N)CCCN=C(N)N)[C@@H](O)[C@@H]1O | - | CXCR4 | - | - | IC50 | - | 7.2 µM
Cc1cccc(C)c1C(=O)N1CCC(N2CCN([C@@H](C)c3ccc(I)cc3)[C@@H](C)C2)CC1 | - | CCR5 | radiometric | - | Ki | - | 0.01 µM
O=c1[nH]c(=O)n([C@H]2C[C@H](F)[C@@H](CO)O2)cc1I | - | Thymidine kinase | thymidine uptake / kinase activity | - | Ki | - | 5.2 µM
CCN(C(=O)OCc1ccccc1)C1CCN(CCC(CC)(CN(C)S(=O)(=O)c2ccccc2)c2ccccc2)CC1 | - | CCR5 | radioligand binding / binding | - | IC50 | - | 0.0097 µM
NC(N)=NCCC[C@H]1/C=C/[C@@H](Cc2ccc3ccccc3c2)C(=O)NCC(=O)N[C@H](Cc2ccc(O)cc2)C(=O)N[C@@H](CCCN=C(N)N)C(=O)N1 | - | CXCR4 | radiometric | - | IC50 | - | 31–100 µM
CN(CC[C@H](CN(C)S(=O)(=O)c1ccccc1)c1cccc(Cl)c1)Cc1ccccc1 | - | CCR5 | radioligand binding / binding | - | IC50 | - | >10 µM
CC(=O)N1CCC(C(=O)N(CCCN2CCC(Cc3ccc(C(N)=O)cc3)CC2)c2ccc(C)c(Cl)c2)CC1 | - | CCR3 | radiometric | - | IC50 | - | >10 µM
NC(N)=NCCC[C@H](N)C(=O)NC[C@@H]1OC(O[C@H]2[C@@H](O)[C@H](O[C@@H]3[C@@H](O)[C@H](NC(=O)[C@@H](N)CCCN=C(N)N)C[C@H](NC(=O)[C@@H](N)CCCN=C(N)N)[C@H]3O[C@H]3O[C@H](CNC(=O)[C@@H](N)CCCN=C(N)N)[C@@H](O)[C@H](O)[C@H]3NC(=O)[C@@H](N)CCCN=C(N)N)O[C@@H]2CO)[C@H](NC(=O)[C@@H](N)CCCN=C(N)N)[C@@H](O)[C@@H]1O | - | CXCR4 | - | - | IC50 | - | 1.3 µM
CN(CCCNN)C[C@H]1O[C@@H](n2cnc3c(N)ncnc32)[C@H](O)[C@@H]1O | - | Ornithine decarboxylase | - | - | IC50 | - | 30 µM
CN(C[C@@H](CCN1CCC2(CC1)Cc1ccccc1C2=O)c1cccc(Cl)c1)S(=O)(=O)c1ccccc1 | - | CCR5 | radioligand binding / binding | - | inhibition | 1 µM | 30%
CC(C)[C@H](NC(=O)[C@@H](NC(=O)C(Cc1ccccc1)CP(=O)(O)C(Cc1ccccc1)NC(=O)c1ccccc1)C(C)C)C(N)=O | - | Cathepsin D | - | pH 3.5 | Ki | - | 0.017 µM
COC(=O)N(CC1CCCCC1)C1CCN(CCC(CN(C)S(=O)(=O)c2ccccc2)c2ccccc2)CC1 | - | CCR5 | radioligand binding / binding | - | IC50 | - | 0.005 µM
CC(C)(C)OC(=O)NCCC(=O)Nc1cccc(C(c2c(O)c3c(oc2=O)CCCCCC3)C2CC2)c1 | - | Cathepsin D | - | - | inhibition | 25 µM | 0%
O=c1ccn([C@H]2C[C@H](F)[C@@H](CO)O2)c(=O)[nH]1 | - | Thymidine kinase | thymidine uptake / kinase activity | - | Ki | - | 392 µM
CN1CC[C@H](c2c(O)cc(O)c3c(=O)cc(-c4ccccc4Cl)oc23)[C@H](O)C1 | - | Cyclin-dependent kinase 7 | radiometric | - | IC50 | - | 0.2 µM
CC(C)=CCC[C@H](C)[C@H]1CC[C@]2(C)C[C@H]3[C@H](C(=O)C[C@@]3(C)O)C(C=O)=C[C@@H]12 | - | gp120 | radiometric | - | IC50 | - | 40 µM
[N-]=[N+]=N[C@H]1C[C@H](n2cc(I)c(=O)[nH]c2=O)O[C@@H]1CO | - | Thymidine kinase | nucleotide incorporation | - | Ki | - | 2.63 µM
NC(=O)c1nnn(Cc2cc(Cl)c(C(=O)c3ccc(Cl)cc3)c(Cl)c2)c1N | - | Nuclear factor-kappa B | gel | - | IC50 | - | <10 µM
Nc1ncnc2c1ncn2CCOCP(=O)(O)O | - | Nucleotidase | - | - | IC50 | - | >500 µM
NC(N)=NCCC[C@@H]1NC(=O)[C@H](Cc2ccc(F)cc2)NC(=O)[C@@H](Cc2ccc(O)cc2)NC(=O)CNC(=O)[C@H](Cc2ccc3ccccc3c2)NC1=O | - | CXCR4 | radiometric | - | IC50 | - | 0.057 µM
C=CCN(C(=O)OCc1ccc([N+](=O)[O-])cc1)C1CCN(CC[C@](C)(CN(C)S(=O)(=O)c2ccccc2)c2ccccc2)CC1 | CCR5-D276A | CCR5 | radiometric | - | fold resistance | - | 2.35
CN(C[C@@H](CCN1CCC(C(C)(C)C)CC1)c1cccc(Cl)c1)S(=O)(=O)c1ccccc1 | - | CCR5 | radioligand binding / binding | - | inhibition | 10 µM | 74%
O=C(c1ccccc1Cl)N1C[C@H](CN2CCC(O)(CCCc3ccc(-c4nn[nH]n4)cc3)CC2)[C@@H](c2ccccc2)C1 | CCR5-W86A | CCR5 | radiometric | - | fold resistance | - | 10.9
CN(CCC(=O)NN)C[C@H]1O[C@@H](n2cnc3c(N)ncnc32)[C@H](O)[C@@H]1O | - | S-adenosylmethionine decarboxylase | - | - | IC50 | - | 0.22 µM

For reference, 2 entries again:

compound | mutations | target | read by | conditions | endpoint | dose | value
CCO/N=C(\c1ccc(Br)cc1)C1CCN(C2(C)CCN(C(=O)c3c(C)cc[n+]([O-])c3C)CC2)CC1 | - | CCR3 | - | - | IC50 | - | >20 µM
C[C@@H]1C[C@H]2CC(=O)O[C@]3(C1)N1CCCC(=O)[C@]23CCC1 | - | Acetylcholinesterase | - | - | IC50 | - | 90.3 µM

Fold resistance has wild type as its base. Two numbers with a dash give a range or band. Percent inhibition refers to the dose given; in toxicity tests it is the harm to the cells. ICn: concentration for n% inhibition. An empty or dashed field is not shown.